Data reported in ChEMBL document CHEMBL3124763.
Calls of active or inactive are those of the source. No cut-off for these calls is given here.

By UniProt entry, the sequences of proteins in these tests, tags left out.
UniProt P09958, whole entry, looked up: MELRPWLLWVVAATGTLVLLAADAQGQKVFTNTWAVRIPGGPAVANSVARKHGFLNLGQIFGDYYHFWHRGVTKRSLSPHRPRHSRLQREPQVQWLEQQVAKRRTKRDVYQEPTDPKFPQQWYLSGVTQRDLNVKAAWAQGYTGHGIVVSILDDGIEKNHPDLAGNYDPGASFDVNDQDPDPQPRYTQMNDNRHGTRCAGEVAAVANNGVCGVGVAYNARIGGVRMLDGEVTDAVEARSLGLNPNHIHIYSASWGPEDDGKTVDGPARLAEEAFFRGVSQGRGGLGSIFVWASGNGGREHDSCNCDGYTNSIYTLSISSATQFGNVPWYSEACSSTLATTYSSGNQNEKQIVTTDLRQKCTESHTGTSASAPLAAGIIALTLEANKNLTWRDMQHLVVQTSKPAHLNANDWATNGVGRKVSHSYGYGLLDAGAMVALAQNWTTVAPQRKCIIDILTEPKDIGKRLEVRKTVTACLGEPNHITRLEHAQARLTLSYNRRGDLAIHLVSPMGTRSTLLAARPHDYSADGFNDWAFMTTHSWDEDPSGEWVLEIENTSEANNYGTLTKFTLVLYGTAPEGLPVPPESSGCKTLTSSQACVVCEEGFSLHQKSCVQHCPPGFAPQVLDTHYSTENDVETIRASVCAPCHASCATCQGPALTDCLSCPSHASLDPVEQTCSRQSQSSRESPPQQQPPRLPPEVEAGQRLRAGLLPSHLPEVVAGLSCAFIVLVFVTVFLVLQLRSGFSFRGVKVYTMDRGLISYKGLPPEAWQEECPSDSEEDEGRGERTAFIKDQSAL

Columns and labels:
Furin (Homo sapiens) [1] = biological target: Furin (Homo sapiens) (UniProt P09958); test: Inhibition of furin (unknown origin) assessed as HA5-mediated membrane fusion at 100 uM after 36 hrs by cell-based luciferase reporter gene assay
Furin (Homo sapiens) [2] = biological target: Furin (Homo sapiens) (UniProt P09958); test: Inhibition of furin (unknown origin) assessed as HA5-mediated membrane fusion at 12.5 to 50 uM after 36 hrs by cell-based luciferase reporter gene assay

SMILES | inhibition (Furin (Homo sapiens) [1]) | inhibition (Furin (Homo sapiens) [2])
CC(=O)N[C@@H](CCCNC(=N)N)C(=O)N[C@@H](C)C(=O)N[C@@H](CCCNC(=N)N)C(=O)N[C@@H](CCCNC(=N)N)C(=O)N[C@@H](CCCNC(=N)N)C(=O)N[C@@H](CCCCN)C(=O)N[C@@H](CCCCN)C(=O)NC/C=C/CNC(=N)N | 44% | –
CC(=O)N[C@@H](CCCNC(=N)N)C(=O)N[C@@H](C)C(=O)N[C@@H](CCCNC(=N)N)C(=O)N[C@@H](CCCNC(=N)N)C(=O)N[C@@H](CCCNC(=N)N)C(=O)N[C@@H](CCCCN)C(=O)N[C@@H](CCCCN)C(=O)N[C@@H](CCCNC(=N)N)C(=O)N[C@H](C(N)=O)[C@@H](C)O | 51% | Active
CC(=O)N[C@@H](CCCNC(=N)N)C(=O)N[C@@H](C)C(=O)N[C@@H](CCCNC(=N)N)C(=O)N[C@@H](CCCNC(=N)N)C(=O)N[C@@H](CCCNC(=N)N)C(=O)N[C@@H](CCCCN)C(=O)N[C@@H](CCCCN)C(=O)NCc1ccc(C(=N)N)cc1 | 88% | –
CC(=O)N[C@@H](CCCNC(=N)N)C(=O)N[C@@H](C)C(=O)N[C@@H](CCCNC(=N)N)C(=O)N[C@@H](CCCNC(=N)N)C(=O)N[C@@H](CCCNC(=N)N)C(=O)N[C@@H](CCCCN)C(=O)N[C@@H](CCCCN)C(=O)NN(CCCNC(=N)N)CC(=O)N[C@H](C(N)=O)[C@@H](C)O | 77% | –
CC(=O)NN(CCCNC(=N)N)CC(=O)N[C@@H](C)C(=O)N[C@@H](CCCNC(=N)N)C(=O)N[C@@H](CCCNC(=N)N)C(=O)N[C@@H](CCCNC(=N)N)C(=O)N[C@@H](CCCCN)C(=O)N[C@@H](CCCCN)C(=O)NN(CCCNC(=N)N)CC(=O)N[C@H](C(N)=O)[C@@H](C)O | 12% | Active
